Compound potency records, mixed from different reports. Data source: NIAID ChemDB in PubChem.

All rows: whole-cell or culture tests

Blank or dashed fields: not listed here.

{"smiles": "NC12CC3CC(CC(C3)C1)C2", "agent": "Cryptosporidium parvum", "endpoint": "inhibition", "dose": "10 µg/mL", "result": "2%"}
{"smiles": "CC(C)(C)C1CCC(CN2C3=NC[C@@H](C4CCCCC4)N3C[C@H]2C2CCCCC2)CC1", "agent": "Cryptococcus neoformans", "endpoint": "MIC", "strain or isolate": "ATCC 32045", "result": "4–8 µg/mL"}
{"smiles": "O=c1[nH]c(=O)n([C@H]2C[C@H](O)[C@@H](CO)O2)cc1C(F)(F)F", "agent": "Cryptosporidium parvum", "endpoint": "inhibition", "dose": "100 µg/mL", "result": "89%"}
{"smiles": "CC(C)(C)C1CCC(CN2C3=NC[C@H](CC4CCCCC4)N3C[C@@H]2CC2CCCCC2)CC1", "agent": "Cryptococcus neoformans", "endpoint": "MIC", "strain or isolate": "ATCC 32045", "result": "8–16 µg/mL"}
{"smiles": "CN(C)[C@@H]1C(=O)C(C(N)=O)=C(O)[C@@]2(O)C(=O)C3=C(O)c4c(O)cccc4[C@@](C)(O)[C@H]3[C@H](O)[C@@H]12", "agent": "Cryptosporidium parvum", "cell line": "L929", "endpoint": "inhibition", "strain or isolate": "Calf isolate", "dose": "4 µg/mL", "result": "44.41%"}
{"smiles": "C1CCC(C[C@H]2CN=C3N2C[C@H](C2CCCCC2)N3CCC23CC4CC(CC(C4)C2)C3)CC1", "agent": "Cryptococcus neoformans", "endpoint": "EC50", "strain or isolate": "ATCC 32045", "result": "3.2 µg/mL"}
{"smiles": "Cc1cn([C@@H]2O[C@H](CO)[C@@H](O)[C@@H]2O)c(=O)[nH]c1=O", "agent": "Cryptosporidium parvum", "endpoint": "inhibition", "dose": "5 µg/mL", "result": "0%"}
{"smiles": "C1CCC([C@H]2CN3C(=NC[C@@H]3C3CCCCC3)N2CCC23CC4CC(CC(C4)C2)C3)CC1", "agent": "Cryptococcus neoformans", "endpoint": "EC50", "strain or isolate": "ATCC 32045", "result": "2.2 µg/mL"}
{"smiles": "O=c1[nH]c(=O)n([C@H]2C[C@H](O)[C@@H](CO)O2)cc1/C=C/Br", "agent": "Cryptosporidium parvum", "endpoint": "inhibition", "dose": "100 µg/mL", "result": "10%"}
{"smiles": "c1ccc2[nH]c(-c3cscn3)nc2c1", "agent": "Cryptococcus neoformans", "endpoint": "EC50", "strain or isolate": "ATCC 14116", "result": "<4 µg/mL"}
{"smiles": "CC(C)(C)C1CCC(CN2C3=NC[C@H](C4CCCCC4)N3C[C@@H]2CC2CCCCC2)CC1", "agent": "Cryptococcus neoformans", "endpoint": "MIC", "strain or isolate": "ATCC 32045", "result": "8–16 µg/mL"}
{"smiles": "CC(=O)N[C@@H](CC(C)C)C(=O)N[C@@H](CC(C)C)C(=O)N[C@H](C=O)CCCN=C(N)N", "agent": "Cryptosporidium parvum", "read by": "cell count / microscopy", "endpoint": "inhibition", "dose": "5 µg/mL", "result": "10.9%"}
{"smiles": "C1CCC([C@H]2CN3C(=NC[C@H]3C3CCCCC3)N2CCC23CC4CC(CC(C4)C2)C3)CC1", "agent": "Cryptococcus neoformans", "endpoint": "MIC", "strain or isolate": "ATCC 32045", "result": "4–8 µg/mL"}
{"smiles": "CCCCNC(=O)n1c(NC(=O)OC)nc2ccccc21", "agent": "Cryptococcus neoformans", "endpoint": "EC50", "strain or isolate": "ATCC 14116", "result": "2 µg/mL"}
{"smiles": "CO[C@@H]1[C@@H](O[C@@H]2O[C@H](C)[C@@H](O[C@H]3C[C@@](C)(O)[C@@H](O)[C@H](C)O3)[C@H](N(C)C)[C@H]2O)[C@@H](CC=O)C[C@@H](C)[C@@H](O[C@H]2CC[C@H](N(C)C)[C@H](C)O2)/C=C/C=C/C[C@@H](C)OC(=O)C[C@H]1O", "agent": "Cryptosporidium parvum", "cell line": "L929", "endpoint": "inhibition", "strain or isolate": "Calf isolate", "dose": "0.8 µg/mL", "result": "30.05%"}
{"smiles": "CC(C)[C@H](NC(=O)[C@H](CCCN=C(N)N)NC(=O)N[C@@H](Cc1ccccc1)C(=O)O)C(=O)N[C@H](C=O)CCCN=C(N)N", "agent": "Cryptosporidium parvum", "endpoint": "inhibition", "dose": "500 µg/mL", "result": "84.42%"}
{"smiles": "C[C@H]1[C@H](O)[C@@H](C)/C=C/C=C/C=C/C=C/C=C/C=C/C=C/[C@H](O[C@@H]2O[C@H](C)[C@@H](O)[C@H](N)[C@@H]2O)C[C@@H]2O[C@](O)(C[C@@H](O)C[C@@H](O)CC[C@H](O)[C@@H](O)C[C@@H](O)CC(=O)O[C@H]1C)C[C@H](O)[C@H]2C(=O)O", "agent": "Cryptosporidium parvum", "cell line": "L929", "endpoint": "inhibition", "strain or isolate": "Calf isolate", "dose": "4 µg/mL", "result": "3.7%"}
{"smiles": "CN(C/C=C/C#CC(C)(C)C)Cc1cccc2ccccc12", "agent": "Cryptococcus spp.", "endpoint": "MIC", "strain or isolate": "CCUG 18919", "result": "0.5 µg/mL"}
{"smiles": "CCc1nc(N)nc(N)c1-c1ccc(Cl)cc1", "agent": "Cryptosporidium parvum", "cell line": "L929", "endpoint": "inhibition", "strain or isolate": "Calf isolate", "dose": "0.032 µg/mL", "result": "14.05%"}
{"smiles": "O=C(O)P(=O)(O)O", "agent": "Cryptosporidium parvum", "endpoint": "inhibition", "dose": "100 µg/mL", "result": "0%"}
{"smiles": "CCCc1ncc(C[n+]2ccccc2C)c(N)n1", "agent": "Cryptosporidium parvum", "cell line": "L929", "endpoint": "inhibition", "strain or isolate": "Calf isolate", "dose": "0.032 µg/mL", "result": "21.57%"}
{"smiles": "COC(=O)Nc1nc2ccc(C(=O)c3cccs3)cc2[nH]1", "agent": "Cryptococcus neoformans", "endpoint": "EC90", "strain or isolate": "IU4", "result": "0.22 µg/mL"}
{"smiles": "Nc1ccc(S(=O)(=O)Nc2cnc3ccccc3n2)cc1", "agent": "Cryptosporidium parvum", "cell line": "L929", "endpoint": "inhibition", "strain or isolate": "Human isolate", "dose": "20 µg/mL", "result": "83.15%"}
{"smiles": "Nc1ncnc2c1ncn2[C@@H]1O[C@H](CO)[C@@H](O)[C@@H]1O", "agent": "Cryptosporidium parvum", "endpoint": "inhibition", "dose": "10 µg/mL", "result": "19%"}

The last 3 rows once more:

smiles | agent | cell line | read by | endpoint | strain or isolate | dose | result
COC(=O)Nc1nc2ccc(C(=O)c3cccs3)cc2[nH]1 | Cryptococcus neoformans | - | - | EC90 | IU4 | - | 0.22 µg/mL
Nc1ccc(S(=O)(=O)Nc2cnc3ccccc3n2)cc1 | Cryptosporidium parvum | L929 | - | inhibition | Human isolate | 20 µg/mL | 83.15%
Nc1ncnc2c1ncn2[C@@H]1O[C@H](CO)[C@@H](O)[C@@H]1O | Cryptosporidium parvum | - | - | inhibition | - | 10 µg/mL | 19%

Percent inhibition refers to the dose given; in toxicity tests it is the harm to the cells. ECn: concentration that inhibits the pathogen or its effect by n%. Lines come from different laboratories, so protocols vary. a–b is a range or a potency band.